Test [1] deals with VSV-G pseudotyped HIV-1 in CEM cells. To be noted: 48 h.
Test [2] relates to VSV-G pseudotyped HIV-1 virions. To be noted: 1 h.
Another test relates to CEM cells. As to the kind of experiment: Uptake kinetics with 125I-labeled conjugates. It counts as cell-based. To be noted: slope of Hill plot of uptake data, 125I-labeled conjugate, room temperature, 30 s. The essentials: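 125I-labeled conjugate purified by gel filtration and C18 reverse phase, quantified at A260, and specific radioactivity set with unlabeled conjugate. 1 × 10^6 CEM cells exposed to varying concentrations at room temperature for 30 s, then filtered on glass fiber, washed with PBS. Internalized conjugate measured by gamma counting from specific radioactivity; nH taken from Hill plot slope.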

The results in this text go back to paper PMC1182329 (Nucleic Acids Research, 2005).

`CC[C@H](C)[C@H](NC(=O)[C@H](CCCCN)NC(=O)[C@H](CCCCN)NC(=O)[C@H](C)NC(=O)[C@H](CC(C)C)NC(=O)[C@H](C)NC(=O)[C@H](C)NC(=O)[C@H](CC(C)C)NC(=O)[C@H](C)NC(=O)[C@H](CCCCN)NC(=O)[C@H](CC(C)C)NC(=O)[C@H](CC(N)=O)NC(=O)[C@@H](NC(=O)[C@H](CCCCNC(=O)[C@@H](N)CSSC[C@H](NC(C)=O)C(=O)NCCN(CC(=O)NCCN(CC(=O)NCCN(CC(=O)NCCN(CC(=O)NCCN(CC(=O)NCCN(CC(=O)NCCN(CC(=O)NCCN(CC(=O)NCCN(CC(=O)NCCN(CC(=O)NCCN(CC(=O)NCCN(CC(=O)NCCN(CC(=O)NCCN(CC(=O)NCCN(CC(=O)NCCN(CC(N)=O)C(=O)Cn1cc(C)c(=O)[nH]c1=O)C(=O)Cn1ccc(N)nc1=O)C(=O)Cn1cc(C)c(=O)[nH]c1=O)C(=O)Cn1cnc2c(N)ncnc21)C(=O)Cn1cnc2c(=O)[nH]c(N)nc21)C(=O)Cn1cnc2c(N)ncnc21)C(=O)Cn1ccc(N)nc1=O)C(=O)Cn1cc(C)c(=O)[nH]c1=O)C(=O)Cn1ccc(N)nc1=O)C(=O)Cn1cnc2c(=O)[nH]c(N)nc21)C(=O)Cn1cnc2c(=O)[nH]c(N)nc21)C(=O)Cn1cnc2c(N)ncnc21)C(=O)Cn1ccc(N)nc1=O)C(=O)Cn1ccc(N)nc1=O)C(=O)Cn1ccc(N)nc1=O)C(=O)Cn1cc(C)c(=O)[nH]c1=O)NC(=O)CNC(=O)[C@H](CC(C)C)NC(=O)[C@H](CC(C)C)NC(=O)[C@H](Cc1ccc(O)cc1)NC(=O)CNC(=O)[C@H](C)NC(=O)[C@H](CO)NC(=O)[C@H](CC(N)=O)NC(=O)[C@H](CC(C)C)NC(=O)[C@H](Cc1ccc(O)cc1)NC(=O)[C@H](Cc1c[nH]c2ccccc12)NC(=O)CN)[C@@H](C)CC)C(=O)N[C@@H](CC(C)C)C(N)=O` [PNATAR–transportan-27]: the IC50 in test [1] was 400 nM; in test [2], 66 nM. For the compound `CC[C@H](C)[C@H](NC(=O)[C@H](CCCCNC(=O)[C@@H](N)CSSC[C@H](NC(C)=O)C(=O)NCCN(CC(=O)NCCN(CC(=O)NCCN(CC(=O)NCCN(CC(=O)NCCN(CC(=O)NCCN(CC(=O)NCCN(CC(=O)NCCN(CC(=O)NCCN(CC(=O)NCCN(CC(=O)NCCN(CC(=O)NCCN(CC(=O)NCCN(CC(=O)NCCN(CC(=O)NCCN(CC(=O)NCCN(CC(N)=O)C(=O)Cn1cc(C)c(=O)[nH]c1=O)C(=O)Cn1ccc(N)nc1=O)C(=O)Cn1cc(C)c(=O)[nH]c1=O)C(=O)Cn1cnc2c(N)ncnc21)C(=O)Cn1cnc2c(=O)[nH]c(N)nc21)C(=O)Cn1cnc2c(N)ncnc21)C(=O)Cn1ccc(N)nc1=O)C(=O)Cn1cc(C)c(=O)[nH]c1=O)C(=O)Cn1ccc(N)nc1=O)C(=O)Cn1cnc2c(=O)[nH]c(N)nc21)C(=O)Cn1cnc2c(=O)[nH]c(N)nc21)C(=O)Cn1cnc2c(N)ncnc21)C(=O)Cn1ccc(N)nc1=O)C(=O)Cn1ccc(N)nc1=O)C(=O)Cn1ccc(N)nc1=O)C(=O)Cn1cc(C)c(=O)[nH]c1=O)NC(=O)CNC(=O)[C@H](CC(C)C)NC(=O)[C@H](CC(C)C)NC(=O)[C@H](Cc1ccc(O)cc1)NC(=O)CNC(=O)[C@H](C)NC(=O)[C@H](CO)NC(=O)[C@H](CC(N)=O)NC(=O)[C@H](CC(C)C)NC(=O)[C@H](Cc1ccc(O)cc1)NC(=O)[C@H](Cc1c[nH]c2ccccc12)NC(=O)CN)C(=O)N[C@@H](CC(N)=O)C(=O)N[C@@H](CC(C)C)C(=O)N[C@@H](CCCCN)C(=O)N[C@@H](C)C(=O)N[C@@H](CC(C)C)C(=O)N[C@@H](C)C(=O)N[C@@H](C)C(=O)N[C@@H](CC(C)C)C(N)=O` [PNATAR–transportan-22], the “Hill coefficient (nH) of uptake” value in the test with CEM cells was found to be 1.8.
